{"source": "patent US20240376185A1", "about": "“Tetanus prophylaxis” (SMIVET B V, published 2024)", "key": {"[1]": {"target": "T1, horse albumin (horse Alb) (horse, UniProt P35747 25-607)", "experiment": "BLI (Octet Red96): biotinylated horse Alb on SAX sensor, SDA 100 nM"}, "[2]": {"target": "T2, tetanus neurotoxin (TeNT), authentic tetanus holotoxin (Clostridium tetani, UniProt P04958 2-1315)", "experiment": "BLI (Octet Red96): biotinylated TeNT on SAX sensor, SDA 100 nM"}, "[3]": {"target": "T1, horse albumin (horse Alb)", "experiment": "bridging ELISA: cAb-TT2-captured TeNT, SDA, biotinylated horse Alb, StrepPO"}, "[4]": {"target": "T1, horse albumin (horse Alb)", "experiment": "bridging ELISA: cAb-TT2-captured TeNT, SDA, biotinylated horse Alb, StrepPO", "remark": "listed apart in the source"}, "[5]": {"target": "T1, horse albumin (horse Alb)", "experiment": "BLI, 2nd step: horse Alb 100 nM on sensor with biotinylated TeNT and bound SDA"}, "[6]": {"target": "dog IgG (chrompure dog IgG) (dog)", "experiment": "ELISA: coated dog IgG, anti-his6 PO"}, "mAb 6E7": {"target": "T3, mAb 6E7", "T3 construct": "Anti-TeNT mouse mAb", "experiment": "ELISA, coated mAb 6E7 without captured antigen (control)"}, "[7]": {"target": "T2, tetanus neurotoxin (TeNT), authentic …", "experiment": "bridging ELISA: coated dog Alb, SDA, biotinylated TeNT, StrepPO"}, "[8]": {"target": "T2, tetanus neurotoxin (TeNT), authentic …", "experiment": "bridging ELISA: coated dog Alb, SDA, biotinylated TeNT, StrepPO", "remark": "listed apart in the source"}}}
{"binder": "SVG13L (VHH) VHH: QVQLQESGGGLVQPGGSLRLSCEASGFTFDDYGMSWVRQAPGKGLEWVSSLTPNGGSTYYADSVKGRFTISRDNAKNTLYLQMNSLKPEDTALYYCAKNSYYGAMDYWGKGTLVTVSS", "values": [{"measurement": "1st test Signal (nm)", "setting": "[1]", "result": 0.01, "unit": "nm"}, {"measurement": "1st test Signal (nm)", "setting": "[2]", "result": 0.02, "unit": "nm"}]}
{"binder": "SVT16-L123Q-GS2-SVA12M2-H6 (bispecific antibody) QVQLQESGGGSVQAGDSLRLSCAASGRTISNYAMGWFRQAPGKQREFVAAISRSDNTYYTDSVKGRFTISRDNAKNTLYLQMNSLKPEETAVYYCAADPNLMYESKWKYRALEAWGQGTQVTVSSGGGGSGGGSEVQLVESGGGLVQAGGSLRLSCAASGRTFSYYPMAWFRQAPGQEREFVAAIIGADTTYYADSLKGRFTISRDNAKNMVYLQMNSLKPEDTAVYYCAARNTYWSDVYYREGQYTNWGQGTQVTVSSHHHHHH", "values": [{"measurement": "maximal absorbance value", "setting": "[3]", "result": 1.37, "unit": "A450"}, {"measurement": "1st test Signal (nm)", "setting": "[1]", "result": 0.17, "unit": "nm"}, {"measurement": "Effective SDA Concentration at A450 0.7", "setting": "[4]", "result": 2.5, "unit": "ng/mL"}, {"measurement": "2nd test Signal (nm)", "setting": "[5]", "result": 0.17, "unit": "nm"}]}
{"binder": "SVT06L (VHH) VHH: QVQLQESGGGSVQAGGSLRLSCTASELSYDDYTIAWFRRAAGEGRVEDGEGVASITKSYDRAYDNKINYGHSVKGRFTISRDNAKNTVYLQMTDLLPSDTAVYYCALDITPPGGVGASLTEGFLFDYWGQGTQVTVSS", "values": [{"measurement": "maximal absorbance value", "setting": "[6]", "result": 0.05, "unit": "A450"}]}
{"binder": "SVT03L (VHH) VHH: QVQLQQSGGGSVQTGDSLTLSCTASGGSLNSYFVGWFRQSGGKEREFVSVIARTGRSTSYADSVKGRFTISRDNAANTVFLTMNNLRPDDTAIYYCAAVGRPGVLHLTQSYDYWGQGTQVTVSS", "values": [{"measurement": "absorbance at 450 nm", "setting": "mAb 6E7", "result": 0.07}]}
{"binder": "SVT15L-3FW4M (VHH) VHH: QVQLQESGGGLVQTGGSLRLSCRASGRAFANYHFGWFRQAPGKDREFVASISWKGGSTYYANFALGRFTSSVDRAESSVYLQMSGLTPEDTATYYCAAHDGGDWNYHTGMDYWGQGTQVTVSS", "note": "[SVT15L-3FW4M, listing 1 of 2 here]", "values": [{"measurement": "absorbance at 450 nm", "setting": "mAb 6E7", "result": 0.063}]}
{"binder": "SVT15L-3FW4M (VHH) VHH: QVQLQESGGGLVQTGGSLRLSCRASGRAFANYHFGWFRQAPGKDREFVASISWKGGSTYYANFALGRFTSSVDRAESSVYLQMSGLTPEDTATYYCAAHDGGDWNYHTGMDYWGQGTQVTVSS", "note": "[SVT15L-3FW4M, listing 2 of 2 here]", "values": [{"measurement": "maximal absorbance value", "setting": "[6]", "result": 0.05, "unit": "A450"}]}
{"binder": "SVT06-GS2-SVA12M2-H6 (bispecific antibody) QVQLQESGGGSVQAGGSLRLSCTASELSYDDYTIAWFRRAAGEGRVEDGEGVASITKSYDRAYDNKINYGHSVKGRFTISRDNAKNTVYLQMTDLLPSDTAVYYCALDITPPGGVGASLTEGFLFDYWGQGTQVTVSSGGGGSGGGSEVQLVESGGGLVQAGGSLRLSCAASGRTFSYYPMAWFRQAPGQEREFVAAIIGADTTYYADSLKGRFTISRDNAKNMVYLQMNSLKPEDTAVYYCAARNTYWSDVYYREGQYTNWGQGTQVTVSSHHHHHH", "values": [{"measurement": "Effective SDA Concentration at A450 0.3", "setting": "[7]", "result": 0.8, "unit": "ng/mL"}, {"measurement": "maximal absorbance value", "setting": "[8]", "result": 1.56, "unit": "A450"}]}
{"binder": "SVT16-L123Q-GS2-SVG13M4-H6 (bispecific antibody) QVQLQESGGGSVQAGDSLRLSCAASGRTISNYAMGWFRQAPGKQREFVAAISRSDNTYYTDSVKGRFTISRDNAKNTLYLQMNSLKPEETAVYYCAADPNLMYESKWKYRALEAWGQGTQVTVSSGGGGSGGGSEVQLVESGGGLVQPGGSLRLSCEASGFTFDDYGMSWVRQAPGKGLEWVSSLTPNGGSTYYADSVKGRFTISRDNAKNTLYLQMNSLKPEDTALYYCAKNSYYGAMDYWGQGTQVTVSSHHHHHH", "values": [{"measurement": "1st test Signal (nm)", "setting": "[1]", "result": 0.02, "unit": "nm"}, {"measurement": "2nd test Signal (nm)", "setting": "[5]", "result": 0, "unit": "nm"}]}
{"binder": "SVT02L (VHH) VHH: QVQLQQSGGGSVQAGGSLRLSCVGPQRTFSTYGMGWFRQAPGKEREFVAGINYKGDTTYYADSVKGRFTISRDNAKNTLYLQMDSLKPEDRAVYQCARKGGLGGDYRDAGQYRYWGQGTQVTVSS", "note": "[SVT02L, listing 1 of 2 here]", "values": [{"measurement": "absorbance at 450 nm", "setting": "mAb 6E7", "result": 0.067}]}
{"binder": "SVT02L (VHH) VHH: QVQLQQSGGGSVQAGGSLRLSCVGPQRTFSTYGMGWFRQAPGKEREFVAGINYKGDTTYYADSVKGRFTISRDNAKNTLYLQMDSLKPEDRAVYQCARKGGLGGDYRDAGQYRYWGQGTQVTVSS", "note": "[SVT02L, listing 2 of 2 here]", "values": [{"measurement": "maximal absorbance value", "setting": "[6]", "result": 0.06, "unit": "A450"}]}
{"binder": "SVT15-3FW4M-GS2-SVA12M2-H6 (bispecific antibody) QVQLQESGGGLVQTGGSLRLSCRASGRAFANYHFGWFRQAPGKDREFVASISWKGGSTYYANFALGRFTSSVDRAESSVYLQMSGLTPEDTATYYCAAHDGGDWNYHTGMDYWGQGTQVTVSSGGGGSGGGSEVQLVESGGGLVQAGGSLRLSCAASGRTFSYYPMAWFRQAPGQEREFVAAIIGADTTYYADSLKGRFTISRDNAKNMVYLQMNSLKPEDTAVYYCAARNTYWSDVYYREGQYTNWGQGTQVTVSSHHHHHH", "values": [{"measurement": "Effective SDA Concentration at A450 0.3", "setting": "[7]", "result": 11, "unit": "ng/mL"}]}
{"binder": "SVT16L (VHH) VHH: QVQLQESGGGSVQAGDSLRLSCAASGRTISNYAMGWFRQAPGKQREFVAAISRSDNTYYTDSVKGRFTISRDNAKNTLYLQMNSLKPEETAVYYCAADPNLMYESKWKYRALEAWGQGTLVTVSS", "note": "[SVT16L, listing 1 of 2 here]", "values": [{"measurement": "absorbance at 450 nm", "setting": "mAb 6E7", "result": 0.063}]}
{"binder": "SVT16L (VHH) VHH: QVQLQESGGGSVQAGDSLRLSCAASGRTISNYAMGWFRQAPGKQREFVAAISRSDNTYYTDSVKGRFTISRDNAKNTLYLQMNSLKPEETAVYYCAADPNLMYESKWKYRALEAWGQGTLVTVSS", "note": "[SVT16L, listing 2 of 2 here]", "values": [{"measurement": "maximal absorbance value", "setting": "[6]", "result": 0.06, "unit": "A450"}, {"measurement": "1st test Signal (nm)", "setting": "[1]", "result": 0.02, "unit": "nm"}, {"measurement": "2nd test Signal (nm)", "setting": "[5]", "result": 0.01, "unit": "nm"}, {"measurement": "1st test Signal (nm)", "setting": "[2]", "result": 0.11, "unit": "nm"}]}
